Results of unrelated studies side by side (data: NIAID ChemDB).

Shared fields: tests in culture; agent: Mycobacterium tuberculosis

Lines come from different laboratories, so protocols vary. ECn: concentration that inhibits the pathogen or its effect by n%. Percent inhibition refers to the dose given; in toxicity tests it is the harm to the cells. A number after MIC or MFC names an inhibition level or a share of isolates. Blank or dashed fields: not listed here. Two numbers with a dash give a range or band. MIC bound: limit read from a one-dose screen.

structure	read by	read-out	conditions	strain or isolate	cells	tested at	result
CC1COc2c(N3CCN(C)CC3)c(F)cc3c(=O)c(C(=O)O)cn1c23		MIC90		36 isolates			1.2 µg/mL
CC(C)C(OC(=O)c1cc(NC(=S)c2ccccc2)ccc1Cl)C(C)C	BACTEC	inhibition		H37Rv		12.5 µg/mL	81%
CCCCCC(=O)Oc1ccc2c(c1)[nH]c1c(C)nccc12		inhibition		H37Rv		6.25 µg/mL	16%
CO[C@@H]1C[C@H]2C=C[C@H]3[C@H]4O[C@]2(/C(C)=C/[C@@H](C)[C@H](C(C)O)OC1=O)[C@@H]3[C@H](O)[C@@H](C)[C@H]4OC(=O)c1ccc[nH]1	BACTEC	inhibition		H37Rv		12.5 µg/mL	36%
Cc1ccc(CSc2ncn[nH]2)cc1		MIC		My 331/88			250 µM
O=C(Nc1nnc(-c2ccc3c(c2)CCCC3)o1)c1ccc(CC=S)cc1	agar	EC90		H37Rv			1.93 µg/mL
CC(=O)Nc1c(Cl)c(Cl)c2[nH]c(=O)c3cc(Cl)ccc3c2c1Cl	BACTEC	MIC bound		H37Rv			>12.5 µg/mL
CC(=O)C[C@H]1C[C@H]2[C@H]([C@@H]3c4[nH]c5ccccc5c4CCN13)[C@H](O)C13CC/C=C\CCCCN1CC21C2CCCCCCCN2[C@H]13		MIC					1.9 µg/mL
NNC(=O)c1ccncc1		MIC		My 331/88			1 µg/mL
CCCN1CCN(c2cc(=O)c3nc4c(oc3c2)c2c(=O)c3c(O)c(C)c5c(c34)=C(O)[C@@](C)(O/C=C/[C@H](OC)[C@@H](C)[C@@H](OC(C)=O)[C@H](C)[C@H](O)[C@H](C)[C@@H](O)[C@@H](C)/C=C/C=C(/C)C(=O)N2)O5)CC1		MIC50					0.0125–1.56 µg/mL
CC1CN(c2nc3c(cc2F)c(=O)c(C(=O)O)cn3C(C)(C)C)CCN1		MIC		H37Rv			0.78 µg/mL
Oc1cc(Cl)cc(Cl)c1C(=S)NCc1ccc(Cl)c(Cl)c1		MIC		My 331/88			16 µg/mL
CO/N=C(\C(=O)N[C@@H]1C(=O)N2C(C(=O)O)=C(COC(C)=O)CS[C@H]12)c1csc(N)n1	BACTEC	inhibition		12 strains		100 µg/mL	75%
O=C(Nc1cccc(F)c1)c1cc(Cl)ccc1OS(=O)(=O)c1ccccc1		MIC	21 d	H37Rv			16 µM
CC(C)=CCc1cc(/C=C/C(=O)c2cc(CC=C(C)C)c(O)cc2O)ccc1O	resazurin	MIC		MTCS1			>39.06 µg/mL
C=C1CCCC(C)(C)[C@H]1CC/C(C)=C/CC/C(C)=C/Cn1c[n+](C)c2ncnc(N)c21		EC50					<6.25 µg/mL
c1ccc(OCc2nnc3n2N=C(c2ccccc2)CS3)cc1	BACTEC	MIC bound		H37Rv			>12.5 µg/mL
CCCCCc1ccc(Oc2c(F)cccc2C#N)c(O)c1		MIC100					25 µg/mL
O=C(Nc1ccc(Cl)c(Cl)c1)c1ccc(Cl)cc1OS(=O)(=O)c1ccccc1		MIC	14 d	H37Rv			4 µM
CN[C@@H]1[C@H](O[C@H]2[C@H](O[C@H]3[C@H](O)[C@@H](O)[C@H](N=C(N)N)[C@@H](O)[C@@H]3N=C(N)N)O[C@@H](C)[C@]2(O)C=O)O[C@@H](CO)[C@H](O)[C@H]1O		EC50		89 drug-resistant isolates			<5 µg/mL
COc1cc(OC)nc(NC(=O)NS(=O)(=O)c2ncccc2C(=O)N(C)C)n1		MIC		P4145			62 µM
CC1CN(c2c(F)cc3c(=O)c(C(=O)O)cn(C4CC4)c3c2Br)CCN1		MIC		H37Rv			0.78 µg/mL
CCCCCCCCCCCCCC[n+]1cccc(C(N)=O)c1.[Br-]	BACTEC	MIC		H37Rv			≥12.5 µg/mL
O=C(Nc1cccc(Br)c1)c1cc(Cl)ccc1OS(=O)(=O)c1ccccc1		MIC	14 d	H37Rv			8 µM
CC1=CC(=NC(=O)CBr)C=C/C1=N\S(=O)(=O)c1ccccc1	BACTEC	inhibition		H37Rv		12.5 µg/mL	98%
O=C(Nc1ccc(Br)cc1)c1cc(Cl)ccc1OS(=O)(=O)c1ccccc1		MIC	14 d	H37Rv			8 µM
CC(C)(C)n1cc(C(=O)O)c(=O)c2cc(F)c(N3CCC(N)C3)nc21		MIC		H37Rv			12.5 µg/mL
Clc1ccc(C(Cn2ccnc2)NC/C=C/c2ccccc2)cc1		MIC		CIP103471			>16 µg/mL
COC1=NCN=C2SC=C(N)N=C12.Cl	BACTEC	inhibition		H37Rv		12.5 µg/mL	24%
CCCn1c(O)c(N=NC(=O)c2ccncc2)c2ccccc21		MIC		Human resistant isolate			3.1 µg/mL
CN1CCN(c2cc3c(cc2F)c(=O)c(C(=O)O)cn3-c2ccc(F)cc2)CC1	BACTEC	EC50		12 strains			<100 µg/mL
c1ccc(-c2ccc(CNC(Cn3ccnc3)c3ccccc3)cc2)cc1		MIC		CIP103471			4 µg/mL
CCOc1c(N=Nc2ccc(Cl)cc2Cl)c(C)nn1C(=S)S		MIC		KM-R			12.5 µg/mL
CC(=O)Oc1ccc2c(c1)[nH]c1c(C)nccc12		inhibition		H37Rv		6.25 µg/mL	15%
O=C(Nc1ccc(Cl)cc1)c1cc(Cl)ccc1OS(=O)(=O)c1ccccc1		MIC	14 d	H37Rv			4 µM
CCc1cc(-n2c3c(CC)c(=O)c(CC)cc-3nc3ccccc32)cc(CC)c1O	BACTEC	MIC bound		H37Rv			>12.5 µg/mL
CCCCCCCC(=O)Oc1ccc2c(c1)[nH]c1c(C)nccc12		inhibition		H37Rv		6.25 µg/mL	24%
CO[C@H]1/C=C/O[C@@]2(C)Oc3c(C)c(O)c4c(O)c(c(/C=N/N5CCN(C)CC5)c(O)c4c3C2=O)NC(=O)/C(C)=C\C=C\[C@H](C)[C@H](O)[C@@H](C)[C@@H](O)[C@@H](C)[C@H](OC(C)=O)[C@@H]1C	resazurin	MIC		SIT37			3 µg/mL
Clc1cccc(CSc2ncn[nH]2)c1		MIC		My 331/88			500 µM
CN(CC1=C(O)C(=O)C(CN(C)Cc2c(O)ccc3ccccc23)=C(O)C1=O)Cc1c(O)ccc2ccccc12	BACTEC	MIC bound		H37Rv			>12.5 µg/mL
NNC(=O)c1ccncc1		EC50		85 drug-resistant isolates			<40 µg/mL
NC(=O)NC1C(C(N)=O)N(Cc2ccccc2)C(=O)N1Cc1ccccc1	BACTEC	inhibition		H37Rv		12.5 µg/mL	0%
CC(=O)C[C@@H]1C[C@H]2[C@H]([C@@H]3c4[nH]c5ccccc5c4CCN13)[C@H](O)C13CC/C=C\CCCCN1CC21C2CCCCCCCN2[C@H]13		MIC					1.5 µg/mL
O=C(O)C1=C(CSc2nnnn2CS(=O)(=O)O)CS[C@@H]2[C@H](NC(=O)C(O)c3ccccc3)C(=O)N12	BACTEC	EC50		8 strains			>100 µg/mL
NC(=S)c1ccc(CSc2ncn[nH]2)cc1		MIC		My 331/88			250 µM
Cc1cccc(O)c1C(=O)NCc1ccc(Cl)cc1		MIC		My 331/88			16 µg/mL
CC1(C)S[C@@H]2[C@H](NC(=O)[C@H](N)c3ccccc3)C(=O)N2[C@H]1C(=O)O		MIC		IGR			>92 µM
O=C(NC(Cc1ccccc1)C(=O)N/N=C/c1sccc1[N+](=O)[O-])OCc1ccccc1	resazurin	MIC		H37Rv			50 µg/mL
CCn1cc(C(=O)O)c(=O)c2cc(F)c(N3CCN(C)CC3)cc21		MIC90					16 µg/mL
CC(C)(C)C(=O)Nc1nnc(-c2ccc(Br)cc2)o1	agar	EC90		H37Rv			<0.2 µg/mL
C=C(CC[C@@H](C)[C@H]1CC[C@@H]2[C@@H]3[C@@H](CC[C@@]21C)[C@@]1(CO)CC[C@H](O)CC1=C[C@@H]3O)C(C)C		MIC					12.5 µg/mL
COCC(O)Cn1cc([N+](=O)[O-])nc1C	resazurin	inhibition		H37Rv		6.25 µg/mL	-7%
CC(C)=CCC[C@H](C)[C@H]1CC[C@H](C)c2c1cc(C)c1ncoc21		MIC					12.5 µg/mL
NCc1ccccc1CC(=O)N[C@@H]1C(=O)N2C(C(=O)O)=C(CSc3nnnn3CC(=O)O)CS[C@H]12	BACTEC	inhibition		8 strains		100 µg/mL	100%
C[C@H]1COc2c(N3CCN(C)CC3)c(F)cc3c(=O)c(C(=O)O)cn1c23		MIC90		10 strains			1 µg/mL
CCC1(C)NN=C2C(=CC=C3NNC(C)(CC)N32)n2cccc21.Cl.Cl	BACTEC	inhibition		H37Rv		12.5 µg/mL	0%
CCCC(=O)Oc1ccc2c(c1)[nH]c1c(C)nccc12		inhibition		H37Rv		6.25 µg/mL	31%
Fc1ccc(C(Cn2ccnc2)NC/C=C/c2ccccc2)cc1		MIC		CIP103471			8 µg/mL
Cc1ccc(Nc2ncnc3sc(SCc4ccccc4)nc23)cc1	BACTEC	inhibition		H37Rv		12.5 µg/mL	0%
CCCCCc1ccc(Oc2c(C)cccc2N)c(O)c1		MIC100					>100 µg/mL
OC1/C=C\C=C/CN2CC3C=C4CCCCCCCCCC/C=C\CCN5CCC3C(C1)(C5)C42		MIC					8 µg/mL
O=C(NC(Cc1ccccc1)C(=O)N/N=C/c1occc1[N+](=O)[O-])OCc1ccccc1	resazurin	MIC		H37Rv			12.5 µg/mL
O=C(CCC(F)(F)F)N1CCC(N2N=C(c3ccccc3)CC2=O)CC1	GFP / fluorescence	EC50		H37Rv-GFP	Macrophages		>5 µM
O=C1c2ccccc2C(=O)N1Cc1ccc([N+](=O)[O-])cc1Cl	BACTEC	MIC bound		H37Rv			>12.5 µg/mL
C=C(C)[C@H]1[C@@H]2C[C@H](C)[C@H]3CC[C@H](C)[C@@]4(O)C(=O)[C@]1(O)[C@@](C)(O)C(=O)[C@@]324		MIC					12.5 µg/mL
C/C(=N\NC(=O)Cc1c[nH]c2ccccc12)C1CCC2C3CC=C4CC(O)CCC4(C)C3CCC12C	BACTEC	inhibition		H37Rv		12.5 µg/mL	59%
c1ccc(C(Cn2ccnc2)NCc2cccc3ccccc23)cc1		MIC		CIP103471			8 µg/mL
CC(=O)O[C@@H]1OC(=O)C2=CC[C@H]3[C@]4(C)CC[C@H]5C(C)(C)CCC[C@]5(C)[C@H]4CC[C@]3(C)[C@H]21		MIC					4 µg/mL
CO[C@H]1/C=C/O[C@@]2(C)Oc3c(C)c(O)c4c(O)c(c(/C=N/N5CCN(C)CC5)c(O)c4c3C2=O)NC(=O)/C(C)=C\C=C\[C@H](C)[C@H](O)[C@@H](C)[C@@H](O)[C@@H](C)[C@H](OC(C)=O)[C@@H]1C		MIC		PR326			≤0.02 µg/mL
C[C@@H](O)[C@H]1C(=O)N2C(C(=O)O)=C(SCCN=CN)C[C@H]12	BACTEC	inhibition		9 strains		100 µg/mL	66.7%
CC(C)CC(NC(=O)OCc1ccccc1)C(=O)N/N=C/c1sccc1[N+](=O)[O-]	resazurin	MIC		H37Rv			25 µg/mL
Clc1ccc(C(Cn2ccnc2)NCc2ccc(-c3ccccc3)cc2)cc1		MIC		CIP103471			2 µg/mL
CC(C)CC(NC(=O)OC(C)(C)C)C(=O)N/N=C/c1sccc1[N+](=O)[O-]	resazurin	MIC		H37Rv			50 µg/mL
O=C(Nc1cccc(Br)c1)c1ccc(Cl)cc1OS(=O)(=O)c1ccccc1		MIC	21 d	H37Rv			16 µM
Cc1c(N=Nc2cccc(Cl)c2Cl)c(-c2ccccc2)nn1C(=S)S	BACTEC	inhibition		H37Rv		128 µg/mL	100%
Fc1ccc(C(Cn2ccnc2)NCc2cccc3ccccc23)cc1		MIC		CIP103471			>16 µg/mL
CN(C)N1C(=O)C(=O)OC1=C(c1ccccc1)c1ccccc1	BACTEC	MIC bound		H37Rv			>12.5 µg/mL
CCCCCc1ccc(Oc2ccccc2)c(O)c1		MIC100					2.1 µg/mL
COc1cc2c(cc1OC)-c1c(oc3c(CCC(C)C)c(O)ccc3c1=O)CO2	BACTEC	MIC bound		H37Rv			>12.5 µg/mL
CC(C)CC(N)C(=O)N/N=C/c1occc1[N+](=O)[O-]	resazurin	MIC		H37Rv			25 µg/mL
O=C(N=Nc1c(O)n(Cc2ccccc2)c2ccccc12)c1ccncc1		MIC		BOVIN			3.5 µg/mL
CC(C)(C)OC(=O)NC(Cc1ccccc1)C(=O)N/N=C/c1sccc1[N+](=O)[O-]	resazurin	MIC		H37Rv			50 µg/mL
CCCCCc1ccc(Oc2ccccc2C(F)(F)F)c(O)c1		MIC100					50 µg/mL
CCCCCCCC(=O)N1[C@H]2[C@@H]1CN1C3=C(C(=O)C(N)=C(C)C3=O)[C@@H](COC(N)=O)[C@@]21OC		MIC		KM-R			0.2 µg/mL
C[C@@H]1CN(c2nc3c(cc2F)c(=O)c(C(=O)O)cn3C(C)(C)C)C[C@H](C)N1		MIC		H37Rv			0.78 µg/mL